A mixed list of measured activities; the numbers were collected in NIAID ChemDB.

Common to all: cytotoxicity tests; cell line: MT-4; read-out: CC50

Rows are shuffled and stem from different studies.

COc1ccc(Oc2c(C(=O)O)oc3cc(O)cc(O)c3c2=O)c(OC)c1 ; value: >25 µg/mL
C/C(C#N)=C\c1cc(C)c(Nc2ccnc(Nc3ccc(C#N)cc3)n2)c(C)c1 ; method: MTT ; value: 20 µM
CNC(=O)CSP(=O)(NCC(=O)OC)OCCOCn1cnc2c(=O)[nH]c(N)nc21 ; value: >70 µM
CCCCCCCCCCCCCCCC(=O)OCC(COC(=O)CCCCCCCCCCCCCCC)OC(=O)CCC(=O)O[C@H](CN1C[C@H]2CCCC[C@H]2C[C@H]1C(=O)NC(C)(C)C)[C@H](Cc1ccccc1)NC(=O)[C@H](CC(N)=O)NC(=O)c1ccc2ccccc2n1 ; method: MTT ; value: >100 µM
CCOP(=O)(N[C@@H](CC(C)C)C(=O)OC)OC[C@H]1O[C@@H](n2cc(C)c(=O)[nH]c2=O)C[C@@H]1N=[N+]=[N-] ; method: MTT ; value: 233 µg/mL
COc1c(O)ccc(C2CC(=O)c3c(O)cc(O)c(CC=C(C)C)c3O2)c1CC=C(C)C ; value: 11 µg/mL
Nc1ccn([C@@H]2O[C@H](CO)C[C@@H]2F)c(=O)n1 ; method: MTT ; value: 150 µg/mL
CC(C)=CCc1c(O)cc(O)c2c(=O)c(O[C@@H]3O[C@@H](C)[C@H](O)[C@@H](O)[C@H]3O)c(-c3ccc(O)cc3)oc12 ; value: 210 µg/mL
CCN(CC)c1nc(N)nc2c1ncn2[C@H]1C[C@H](N=[N+]=[N-])[C@@H](CO)O1 ; value: >200 µM
Cc1cn([C@H]2C[C@H](N=[N+]=[N-])[C@@H](CO)O2)c(=O)[nH]c1=O ; value: 27–250 µM
Cc1nc2ccccc2c(-c2ccc3c4c(ccnc24)[C@@H]2C[C@H]32)c1[C@H](OC(C)(C)C)C(=O)O ; method: ATP ; value: >53.2 µM
CCCCCCCC/C=C\CCCCCCCC(=O)OCC(COC(=O)CCCCCCC/C=C\CCCCCCCC)OC(=O)CCC(=O)O[C@H](CN1C[C@H]2CCCC[C@H]2C[C@H]1C(=O)NC(C)(C)C)[C@H](Cc1ccccc1)NC(=O)[C@H](CC(N)=O)NC(=O)c1ccc2ccccc2n1 ; method: MTT ; value: >100 µM
CC(C)(C)OC(=O)[C@@H]1CCCN1C[C@@H](O)[C@H](Cc1ccccc1)NC(=O)[C@H](CC(N)=O)NC(=O)OCc1ccccc1 ; method: MTT ; value: 202 µg/mL
Cc1c(Cc2c(Cl)cccc2Cl)nc(SCc2cccc(Cl)c2)[nH]c1=O ; method: MTT ; value: >59 µM
Cc1cn([C@H]2C[C@@H](CO)[C@H](O)C2)c(=O)[nH]c1=O ; method: MTT ; value: 160 µg/mL
Cc1cc(CC#N)cc(C)c1Nc1ccnc(Nc2ccc(C#N)cc2)n1 ; method: MTT ; value: 10 µM
O=c1[nH]cnc2c1ncn2[C@H]1CC[C@@H](CO)O1 ; value: 100 µg/mL
NNC(=O)CNC(=O)COc1ccc2ccccc2c1 ; method: MTT ; value: >100 µg/mL
CC(C)=CCc1cc(C2CC(=O)c3c(O)cc(O)c(CC=C(C)C)c3O2)cc(O)c1O ; value: 55 µg/mL
C=C(C)[C@@]12OC3(/C=C/C=C/CCCCCCCCCC)OC1C1[C@@H]4O[C@]4(CO)[C@@H](O)[C@]4(O)C(=O)C(C)=CC4C1(O3)[C@H](C)[C@H]2OC(C)=O ; value: 15.3 µM
COC(=O)[C@H](CC(C)C)NC(=O)COc1ccc2ccccc2c1 ; method: MTT ; value: >100 µg/mL
Cc1cn([C@H]2C[C@H](N=[N+]=[N-])[C@@H](CO)O2)c(=O)[nH]c1=O ; value: 210 µM
Cc1cn([C@H]2C[C@H](N=[N+]=[N-])[C@@H](COC(=O)C(=O)N3CCCC3C(=O)N[C@@H](Cc3ccccc3)C(=O)OCc3ccccc3)O2)c(=O)[nH]c1=O ; value: 88 µM
[N-]=[N+]=N[C@H]1C[C@H](n2cnc3c(NC4CCC4)nc(N)nc32)O[C@@H]1CO ; value: <200 µM
Nc1ncnc2c1ncn2[C@H]1CC[C@@H](COC(=O)C(=O)N2CCCC2C(=O)N[C@H](Cc2ccccc2)C(=O)OCc2ccccc2)O1 ; value: >150 µM
CC(C)Nc1cccnc1N1CCN(C(=O)c2cc3cc(NS(C)(=O)=O)ccc3[nH]2)CC1 ; method: MTT ; value: >20 µM
O[C@H]1[C@H](O)[C@@H](O)CN2CC[C@H](O)[C@H]12 ; method: MTT ; value: >250 µg/mL
Nc1ncnc2c1ncn2[C@@H]1O[C@H](CO)[C@H]1CO ; value: 23 µg/mL
[N-]=[N+]=N[C@H]1C[C@H](n2cnc3c(NCc4ccccc4)nc(N)nc32)O[C@@H]1CO ; value: >80 µM
OC[C@H]1N[C@H](CO)[C@@H](O)[C@@H]1O ; method: MTT ; value: >250 µg/mL
Cc1c([C@@H](C)c2c(F)cccc2F)nc(SC2CCCC2)[nH]c1=O ; value: >200 µM
CCN(CC)CC.COC(=O)CNP(=O)(O)OC[C@H]1O[C@@H](n2cc(C)c(=O)[nH]c2=O)C[C@@H]1F ; value: 70 µM
CCCNc1nc(N)nc2c1ncn2[C@H]1C[C@H](N=[N+]=[N-])[C@@H](CO)O1 ; value: >200 µM
Cc1cn([C@@H]2C[C@H](CO)[C@H](O)C2)c(=O)[nH]c1=O ; method: MTT ; value: >400 µg/mL
Cc1ccnc2c1NC(=O)c1cccnc1N2C1CC1 ; method: MTT ; value: >7.5 µM
CNC(=O)CSP(=O)(NCC(=O)OC)OC[C@H]1O[C@@H](n2cc(C)c(=O)[nH]c2=O)C[C@@H]1N=[N+]=[N-] ; value: 0.1 µM
CC(C)(C)NC(=O)[C@@H]1C[C@@H]2CCCC[C@@H]2CN1C[C@@H](OC(=O)CCCCOc1ccc(C[C@H](N)C(=O)O)cc1)[C@H](Cc1ccccc1)NC(=O)[C@H](CC(N)=O)NC(=O)c1ccc2ccccc2n1 ; method: MTT ; value: >100 µM
CCOc1ccc(CSc2nc(Cc3c(Cl)cccc3Cl)c(C)c(=O)[nH]2)cc1 ; method: MTT ; value: >58 µM
Nc1ncnc2c1ncn2[C@H]1CC[C@@H](CO)O1 ; value: >150 µM
Cc1c(Cc2ccc(F)cc2)nc(SCc2ccc([N+](=O)[O-])cc2)[nH]c1=O ; method: MTT ; value: >65 µM
C[C@H](NC(=O)COc1ccc2ccccc2c1)C(=O)NN ; method: MTT ; value: 46 µg/mL
Nc1nc(I)nc2c1ncn2[C@@H]1O[C@H](CO)[C@H]1O ; value: 54 µg/mL
COC(=O)[C@H](C)NC(=O)COc1ccc2ccccc2c1 ; method: MTT ; value: 59 µg/mL
[N-]=[N+]=N[C@H]1C[C@H](n2cnc3c(Nc4ccccc4)nc(N)nc32)O[C@@H]1CO ; value: <200 µM
Cc1cn([C@@H]2C[C@H](CO)[C@@H](O)C2)c(=O)[nH]c1=O ; method: MTT ; value: 0.07 µg/mL
CCOP(=O)(OC[C@H]1O[C@@H](n2cc(C)c(=O)[nH]c2=O)C[C@@H]1F)SCC(=O)NC ; value: 2000 µM
Nc1ccn([C@H]2CC[C@@H](CO)O2)c(=O)n1 ; value: >150 µM
CC(C)(C)NC(=O)[C@@H]1C[C@@H]2CCCC[C@@H]2CN1C[C@@H](O)[C@H](Cc1ccccc1)NC(=O)[C@H](CC(N)=O)NC(=O)c1ccc2ccccc2n1 ; method: MTT ; value: >100 µM
[N-]=[N+]=N[C@H]1C[C@H](n2cnc3c(NC4CC4)nc(N)nc32)O[C@@H]1CO ; value: <200 µM

For reference, 3 entries again:

compound | method | value
Nc1ccn([C@@H]2O[C@H](CO)C[C@@H]2F)c(=O)n1 | MTT | 150 µg/mL
[N-]=[N+]=N[C@H]1C[C@H](n2cnc3c(Nc4ccccc4)nc(N)nc32)O[C@@H]1CO | - | <200 µM
Cc1cn([C@H]2C[C@H](N=[N+]=[N-])[C@@H](CO)O2)c(=O)[nH]c1=O | - | 210 µM

An empty or dashed field is not shown. a–b is a range or a potency band. CCn is the concentration with n% toxicity to the cells.